Results on two molecules are retold here after paper PMC7790382, “An immunotoxin targeting Ebola virus glycoprotein inhibits Ebola virus production from infected cells” (PLoS ONE, 2021).

Test [1] has as its target Ebola virus (variant Yambuku, isolate Mayinga) glycoprotein GP1,2 (Ebola virus (Zaire ebolavirus), variant …, UniProt Q05320).
Test [2] deals with Marburg virus (variant Mt. Elgon, isolate Musoke) glycoprotein GP1,2 (Marburg virus, variant Mt. Elgon, …, UniProt P35253).

Like-named read-outs stand apart in the source and are kept apart here.

B1: monoclonal antibody 6D8 (antibody, V domains shown)
VH: DVKLLESGGGLVQPGGSLKLSCAASGFDFSRYWMSWVRQAPGKGLEWIGEINPDSSTINYTPSLKDKFIISRDNAKNTLYLQMSKVRSEDTALYYCTRQGYGYNYWGQGTTLIVSS
VL: DVLLTQIPLSLPVSLGDQASISCRSSQSIVHSNGNTYLEWYLQKPGQSPKLLIYKASNRFSGVPDRFSGSGSGTDFTLKINRVEAEDLGVYYCLQGSHVPSTFGGGTKLEIK
Consider B1, for which, in test [1] (one partner purified), the binding result was “binds”.

B2: 6D8-PE38 recombinant immunotoxin (scFv, V domains shown)
VH: B1 VH
VL: B1 VL
In the case of B2, the binding result in test [2] is “no binding”; in test [1] it was “binds”.
